In patent US20240132578A1 (published 2024):
Substitutions are numbered along the chain they refer to.

Columns and labels:
Test in all cases: cell-based or functional assay
[1] = target: HIV-1 93IN905 envelope protein (Env) on pseudotyped virus (HIV-1 strain 93IN905)
[2] = target: HIV-1 IAVI_C22 envelope protein (Env) on pseudotyped virus (HIV-1 strain IAVI C22)
[3] = target: HIV-1 92TH021 envelope protein (Env) on pseudotyped virus (HIV-1 strain 92TH021)
[4] = target: HIV-1 NL43 envelope protein (Env) on pseudotyped virus (HIV-1 strain NL43)
[5] = target: HIV-1 94UG103 envelope protein (Env) on pseudotyped virus (HIV-1 strain 94UG103)
[6] = target: HIV-1 92BR020 envelope protein (Env) on pseudotyped virus (HIV-1 strain 92BR020)
[7] = target: HIV-1 Env of isolate MG RM-A-002 (pseudovirus) (HIV-1)
[8] = target: HIV-1 Env of isolate MG RM-A-004 (pseudovirus) (HIV-1)
[9] = target: HIV-1 Env of isolate MG RM-C-010 (HIV-1)
[10] = target: HIV-1 Env of isolate MG RM-A-003 (pseudovirus) (HIV-1)
[11] = target: HIV-1 Env of isolate MG RM-C-002 (HIV-1)
[12] = target: HIV-1 Env of isolate MG RM-C-006 (HIV-1)
[13] = target: HIV-1 Env of isolate MG RM-C-019 (HIV-1)

B1: 1456_P20 (PG20) (antibody, V domains shown)
VH: QVRLVQSGPEVKKPGSSVTVSCQASGGTFSSYAFTWVRQAPGQGLEWLGMVTPIFGEAKYSQRFEGRVTITADESTSTTSIELRGLTSEDTAIYYCARDRRAVPIATDNWLDPWGQGTLVTVSS
VL: DIQLTQSPSSLSASVGDRVSITCRASQTINNYLNWYQQTPGKAPKLLIYGASNLQNGVPSRFSGSGSGTDFTLTISSLQPEDFATYYCQQSFSTPRTFGQGTRLDIKR
[1]
  IC50, Neutralizing Antibody Assay, Virus/Ab Incubation 1 hour: > 50 mg/L
[2]
  IC50, Neutralizing Antibody Assay, Virus/Ab Incubation 1 hour: > 50 mg/L
  IC50, Neutralizing Antibody Assay, Virus/Ab Incubation 18 hour: > 50 mg/L
[3]
  IC50, Neutralizing Antibody Assay, Virus/Ab Incubation 1 hour: > 50 mg/L
  IC50, Neutralizing Antibody Assay, Virus/Ab Incubation 18 hour: > 50 mg/L
[4]
  IC50, Neutralizing Antibody Assay, Virus/Ab Incubation 1 hour: 0.2 mg/L
  IC50, Neutralizing Antibody Assay, Virus/Ab Incubation 18 hour: 0.05 mg/L
[5]
  IC50, Neutralizing Antibody Assay, Virus/Ab Incubation 1 hour: > 50 mg/L
  IC50, Neutralizing Antibody Assay, Virus/Ab Incubation 18 hour: > 50 mg/L
[6]
  IC50, Neutralizing Antibody Assay, Virus/Ab Incubation 1 hour: > 50 mg/L
  IC50, Neutralizing Antibody Assay, Virus/Ab Incubation 18 hour: > 50 mg/L

B2: 4995_E20 (PGT-142) (antibody, V domains shown)
VH: QVQLVQSGPEVKKPGSSVKVSCKASGNTFSKYDVHWVRQATGQGLEWVGWISHERDKTESAQRFKGRVTFTRDTSATTAYMELRGLTSDDTAIYYCTRGSKHRLRDYVLYDDYGLINYQEWNDYLEFLDVWGHGTAVTVSS
VL: DTVVTQSPLSLPVTPGEAASMSCSSTQSLRHSNGANYLAWYQHKPGQSPRLLIRLGSQRASGVPDRFSGSGSGTHFTLKISRVEAEDAAIYYCMQGLNRPWTFGKGTKLEIK
[7]
  IC50 (µg/mL), single-round pseudovirus neutralization: 0.007 µg/mL
[8]
  IC50 (µg/mL), single-round pseudovirus neutralization: 0.002 µg/mL

B3: 4993_K13 (PGT-141) (antibody, V domains shown)
VH: B2 VH with I51M, R55G, T77S
VL: B2 VL
[8]
  IC50 (µg/mL), single-round pseudovirus neutralization: 0.007 µg/mL

B4: PGT-142 (4995_E20) (antibody, V domains shown)
VH: B2 VH
VL: B2 VL
[9]
  IC50, pseudovirus neutralization: 0.07 mg/L

B5: 4980_N08 (PGT-143) (antibody, V domains shown)
VH: B2 VH with V5E, P9A, I51M, R55G, T77S
VL: B2 VL with S24T, A85P
[8]
  IC50 (µg/mL), single-round pseudovirus neutralization: 0.007 µg/mL

B6: 4970_K22 (PGT-144) (antibody, V domains shown)
VH: B2 VH with P9A, S30R, I51M, R55G, T69S, T74N, T77S, M81I, R98G, Y118Q
VL: B2 VL with P12S, S24T, E86D
[10]
  IC50 (µg/mL), single-round pseudovirus neutralization: > 50 µg/mL

B7: PGT-145 (4995_P16) (antibody, V domains shown)
VH: QVQLVQSGAEVKKPGSSVKVSCKASGNSFSNHDVHWVRQATGQGLEWMGWMSHEGDKTGLAQKFQGRVTITRDSGASTVYMELRGLTADDTAIYYCLTGSKHRLRDYFLYNEYGPNYEEWGDYLATLDVWGHGTAVTVSS
VL: EVVITQSPLFLPVTPGEAASLSCKCSHSLQHSTGANYLAWYLQRPGQTPRLLIHLATHRASGVPDRFSGSGSGTDFTLKISRVESDDVGTYYCMQGLHSPWTFGQGTKVEIK
[11]
  IC50, pseudovirus neutralization: 0.008 mg/L
[12]
  IC50, pseudovirus neutralization: 0.01 mg/L

B8: 1496_C09 (PG9) (TCN-109) (antibody, V domains shown)
VH: QRLVESGGGVVQPGSSLRLSCAASGFDFSRQGMHWVRQAPGQGLEWVAFIKYDGSEKYHADSVWGRLSISRDNSKDTLYLQMNSLRVEDTATYFCVREAGGPDYRNGYNYYDFYDGYYNYHYMDVWGKGTTVTVSS
VL: QSALTQPASVSGSPGQSITISCNGTSNDVGGYESVSWYQQHPGKAPKVVIYDVSKRPSGVSNRFSGSKSGNTASLTISGLQAEDEGDYYCKSLTSTRRRVFGTGTKLTVLG
[13]
  IC50 (µg/mL), pseudovirus neutralization: 0.005 µg/mL
